A mixed list of measured activities; the numbers were collected in NIAID ChemDB.

Shared fields: whole-cell or culture tests; agent: Hepatitis B virus; endpoint: EC50

Two numbers with a dash give a range or band. ECn is the concentration giving n% inhibition of infection, replication or growth. Rows are shuffled and stem from different studies.

CNc1onc2cc(-n3c(=O)c4c(n5ncc(Cc6ccccc6)c35)CN(C(=O)c3ccc(Br)c(Cl)c3)CC4)ccc12 ; method: luminescence ; cells: HepG2.117 ; value: ≤0.05 µM
COCCCOc1cc2c(cc1Cl)-c1c(cc(C(=O)O)c(=O)n1C1CCC1)C(C)S2 ; method: antigen / visual reading / absorbance ; cells: Primary human hepatocytes ; value: 0.05–0.1 µM
COc1ccc(CNC(=O)c2c3n(c(=O)n2-c2cccc(OC)c2)CCN(C(=O)c2ccc(Br)c(Cl)c2)C3)cc1 ; method: PCR ; cells: HepG2.117 ; value: 0.5–5 µM
Cn1cnnc1-c1ccc(-n2c(=O)c3c(n4ncc(Cc5ccccc5)c24)CN(C(=O)c2ccc(Br)c(Cl)c2)CC3)cc1 ; method: luminescence ; cells: HepG2.117 ; value: ≤0.05 µM
Cc1csc(-c2ccc3ncnc(Nc4ccc(N5CCOCC5)cc4)c3c2)c1 ; method: replicon ; cells: HUH 9B ; value: 1–5 µM
COCCCOc1cc2c(cc1-c1ccn(C)n1)-c1c(cc(C(=O)O)c(=O)n1C1CC1)CS2(=O)=O ; method: antigen / visual reading / absorbance ; cells: Primary human hepatocytes ; value: 0.1–0.5 µM
CCNC(=O)c1ccc2ncnc(Nc3ccc(N4CCOCC4)cc3)c2c1 ; method: replicon ; cells: HUH 9B ; value: 1–5 µM
COCCCOc1cc2c(cc1NC(=O)OC(C)(C)C)-c1c(cc(C(=O)O)c(=O)n1C1CC1)C(C)S2(=O)=O ; method: antigen / visual reading / absorbance ; cells: Primary human hepatocytes ; value: >0.5 µM
CN1CCCn2c(c3n(c2=O)CCN(C(=O)c2ccc(Br)c(Cl)c2)C3)C1=O ; method: PCR ; cells: HepG2.2.15 ; value: >5 µM
CNC(=O)c1ccc2ncnc(Nc3ccc(N4CCOCC4)cc3)c2c1 ; method: replicon ; cells: HUH 9B ; value: 1–5 µM
CC1Cc2c(n3ncc(CC4CC4)c3n(-c3ccc(C(=O)N(C)COC(=O)CN)cc3)c2=O)CN1C(=O)c1ccc(Br)c(C(F)(F)F)c1 ; method: luminescence ; cells: HepG2.117 ; value: >5 µM
O=C(NCc1ccccc1)c1c2n(c(=O)n1-c1ccc(-n3cc(F)cn3)cc1)CCN(C(=O)c1ccc(Br)c(Cl)c1)C2 ; method: PCR ; cells: HepG2.117 ; value: 0.1–0.5 µM
C[C@@H]1Cc2c(n3ncc(Cc4ccccc4)c3n(-c3ccc(-c4nncn4C)cc3)c2=O)CN1C(=O)c1ccc(Br)c(C(F)(F)F)c1 ; method: luminescence ; cells: HepG2.117 ; value: ≤0.05 µM
COCCCOc1cc2c(cc1Cl)-c1c(cc(C(=O)O)c(=O)n1C1CCCC1)C(C)S2(=O)=O ; method: antigen / visual reading / absorbance ; cells: Primary human hepatocytes ; value: >0.5 µM
Cn1nnnc1-c1ccc(-n2c(=O)c3c(n4ncc(Cc5ccccc5)c24)CN(C(=O)c2ccc(Br)c(Cl)c2)CC3)cc1 ; method: luminescence ; cells: HepG2.117 ; value: ≤0.05 µM
COCCOc1cc2c(cc1Cl)-c1c(cc(C(=O)O)c(=O)n1C1CC1)C(C)S2(=O)=O ; method: antigen / visual reading / absorbance ; cells: Primary human hepatocytes ; value: >0.5 µM
COc1cccc(CNC(=O)c2c3n(c(=O)n2-c2ccccc2)CCN(C(=O)c2ccc(Br)c(Cl)c2)C3)c1 ; method: PCR ; cells: HepG2.117 ; value: 0.1–0.5 µM
CNC(=O)c1ccc(-n2c(=O)c3c(n4ncc(CC5CC5)c24)CN(C(=O)c2ccc(Br)c(C(F)(F)F)c2)CC3)cc1 ; method: luminescence ; cells: HepG2.117 ; value: ≤0.05 µM
C[C@H](Oc1ccc([C@H](C)NC(=O)c2c3n(c(=O)n2-c2ccc(OCC(F)(F)F)cc2)CCN(C(=O)c2ccc(Br)c(Cl)c2)C3)c(F)c1)C(N)=O ; method: PCR ; cells: HepG2.117 ; value: 0.1–0.5 µM
CC(=O)Nc1cccc(-c2ccc3ncnc(Nc4ccc(N5CCOCC5)cc4)c3c2)c1 ; method: replicon ; cells: HUH 9B ; value: 1–5 µM
CNC(=O)c1ccc(-n2c(=O)c3c(n4ncc(CC5CC5)c24)CN(C(=O)c2ccc(Br)c(Cl)c2)[C@H](C)C3)cc1 ; method: luminescence ; cells: HepG2.117 ; value: ≤0.05 µM
O=C(O)c1cc2c(n(C3CC3)c1=O)-c1cc(Cl)c(OC[C@H]3CCCO3)cc1S(=O)(=O)C2 ; method: antigen / visual reading / absorbance ; cells: Primary human hepatocytes ; value: >0.05 µM
O=C(NCc1ccccc1-c1cnccn1)c1c2n(c(=O)n1-c1ccc(OC3CC3)cc1)CCN(C(=O)c1ccc(Br)c(Cl)c1)C2 ; method: PCR ; cells: HepG2.117 ; value: <0.1 µM
Brc1ccc2ncnc(Nc3ccc(N4CCOCC4)cc3)c2c1 ; method: replicon ; cells: HUH 9B ; value: 1–5 µM
CNc1n[nH]c2cc(-n3c(=O)c4c(n5ncc(CC6CC6)c35)CN(C(=O)c3ccc(Br)c(C(F)(F)F)c3)CC4)ccc12 ; method: luminescence ; cells: HepG2.117 ; value: ≤0.05 µM
COc1ccc(CNC(=O)c2c3n(c(=O)n2-c2ccc(OC4CC4)cc2)CCN(C(=O)c2ccc(Br)c(Cl)c2)C3)c(F)c1 ; method: PCR ; cells: HepG2.117 ; value: 0.1–0.5 µM
O=C(O)c1cc2c(n(C3CC3)c1=O)-c1cc(Cl)c(OCc3cnc(N4CCCC4)nc3)cc1S(=O)(=O)C2 ; method: antigen / visual reading / absorbance ; cells: Primary human hepatocytes ; value: >0.5 µM
COc1ccc(-n2c(C(=O)NCc3ccc4c(c3)OCCO4)c3n(c2=O)CCN(C(=O)c2ccc(Cl)c(Cl)c2)C3)cc1 ; method: PCR ; cells: HepG2.117 ; value: 0.5–5 µM
COCCCOc1cc2c(cc1Cl)-c1c(cc(C(=O)O)c(=O)n1C1CC1)C(C)S2 ; method: antigen / visual reading / absorbance ; cells: Primary human hepatocytes ; value: 0.1–0.5 µM
CC(C)N(c1ccc(N2CCOCC2)cc1)c1ncnc2ccc(-c3cccs3)cc12 ; method: replicon ; cells: HUH 9B ; value: 1–5 µM
Cc1nc(-c2ccc(-n3c(=O)c4c(n5ncc(Cc6ccccc6)c35)CN(C(=O)c3ccc(Br)c(Cl)c3)[C@@H](C)C4)cc2)n[nH]1 ; method: luminescence ; cells: HepG2.117 ; value: 0.05–0.5 µM
O=S1(=O)CCN(Cc2ccc(-c3ccc4ncnc(Nc5ccc(N6CCOCC6)cc5)c4c3)o2)CC1 ; method: replicon ; cells: HUH 9B ; value: 1–5 µM
O=C(O)c1cc2c(n(C3CC3)c1=O)-c1cc(Cl)c(OCC3COC3)cc1S(=O)(=O)C2 ; method: antigen / visual reading / absorbance ; cells: Primary human hepatocytes ; value: 0.05–0.1 µM

A second listing of 4 rows from above:

Cc1nc(-c2ccc(-n3c(=O)c4c(n5ncc(Cc6ccccc6)c35)CN(C(=O)c3ccc(Br)c(Cl)c3)[C@@H](C)C4)cc2)n[nH]1 ; method: luminescence ; cells: HepG2.117 ; value: 0.05–0.5 µM
COCCOc1cc2c(cc1Cl)-c1c(cc(C(=O)O)c(=O)n1C1CC1)C(C)S2(=O)=O ; method: antigen / visual reading / absorbance ; cells: Primary human hepatocytes ; value: >0.5 µM
O=S1(=O)CCN(Cc2ccc(-c3ccc4ncnc(Nc5ccc(N6CCOCC6)cc5)c4c3)o2)CC1 ; method: replicon ; cells: HUH 9B ; value: 1–5 µM
COCCCOc1cc2c(cc1Cl)-c1c(cc(C(=O)O)c(=O)n1C1CCCC1)C(C)S2(=O)=O ; method: antigen / visual reading / absorbance ; cells: Primary human hepatocytes ; value: >0.5 µM